Article PMC5840262, “Design, Synthesis and Evaluation of Branched RRWQWR-Based Peptides as Antibacterial Agents Against Clinically Relevant Gram-Positive and Gram-Negative Pathogens” (Frontiers in Microbiology, 2018)
Bridge positions count the residues as written; N and C are the ends. Square brackets hold non-standard residues; d marks the D form. Peptide text beside a SMILES is read from it. I, II: the chains in the order shown. Ahx = NCCCCCC(=O)O

Experiments:
[1] = tested on: clinical isolates of Gram-positive bacteria (Enteroccocus faecium, Staphylococcus aureus); experiment: Therapeutic index, Gram-positive clinical isolates
Text: (§1) We determined the therapeutic index of each peptide, which we defined as the ratio of Maximum Hemolytic Activity (Hmax) to MIC50 (Hmax/MIC50).
(§2) The results are shown in Table 7 (Gram-positive) and Table 8 (Gram-negative). Regarding the Gram-positive bacteria, the palindromic, dimeric and tetrameric peptides were active chiefly against S. aureus. This trend was consistent with results of the experiments on the ATCC strains, in which these peptides were only active against the sensitive strain of the […] bacteria.

[2] = tested on: clinical isolates of Gram-negative bacteria (Klebsiella pneumoniae, Pseudomonas aeruginosa); experiment: Therapeutic index, Gram-negative clinical isolates
Text: as §1, §2

[3] = tested on: Gram-negative ATCC strains (K. pneumoniae 13883 and 700603, P. aeruginosa 10145 and 27853); details: for Therapeutic index MHC/MIC: Hmax/GM
Text: as §1
(§3) The therapeutic index (TI) is a ratio of the toxic dose of a substance to its therapeutically-active dose and can be calculated different ways (e.g., LD50/ED50). Here, we calculated a TI value for each peptide against all the Gram-positive or the Gram-negative ATCC strains, by dividing its Hmax by its MIC50 for the given group of strains. […] Additionally, to make our quantitative analysis more robust [geometric mean (Khachatryan et al., [2017]) and fold values], we have included MIC50 values for these peptides against S. aureus and K. pneumoniae that we previously obtained using the same assay, the M7-A7 method of the National Committee for Clinical Laboratory Standards (Leon-Calvijo et al., [2015]).

[4] = tested on: Gram-positive ATCC strains (E. faecalis 29212, S. aureus 25923 and 33591); details: for Therapeutic index MHC/MIC: Hmax/GM
Text: as §1, §3

Molecule	Therapeutic index Fold (TI peptide / TI tetrameric peptide) [1]	Therapeutic index MHC/MIC50 [1]	Therapeutic index Fold (TI peptide / TI tetrameric peptide) [2]	Therapeutic index MHC/MIC50 [2]	Therapeutic index Fold (TI peptide / TI tetrameric peptide) [3]	Therapeutic index MHC/MIC [3]	Therapeutic index Fold (TI peptide / TI tetrameric peptide) [4]	Therapeutic index MHC/MIC [4]
N=C(N)NCCC[C@H](NC(=O)[C@H](Cc1c[nH]c2ccccc12)NC(=O)[C@H](CCC(N)=O)NC(=O)[C@H](Cc1c[nH]c2ccccc12)NC(=O)[C@H](CCCNC(=N)N)NC(=O)[C@@H](N)CCCNC(=N)N)C(=O)NCCCC[C@H](NC(=O)[C@H](CCCNC(=N)N)NC(=O)[C@H](Cc1c[nH]c2ccccc12)NC(=O)[C@H](CCC(N)=O)NC(=O)[C@H](Cc1c[nH]c2ccccc12)NC(=O)[C@H](CCCNC(=N)N)NC(=O)[C@@H](N)CCCNC(=N)N)C(=O)NCCCCCC(N)=O [LfcinB (20–25)2] (I: H-RRWQWRK[Ahx]-NH2 / II: H-RRWQWR; amide I:7-II:C; N-terminus assumed)	0.4	6.1	0.6	6.0	0.8	6.2	0.3	10.2
(RRWQWR)4K2Ahx2C2 (disulfide) [LfcinB (20–25)4, branched tetrameric peptide (RRWQWR)4K2Ahx2C2, two dimers linked by a cysteine disulfide bridge]	1.0	14.4	1.0	10.4	1.0	7.6	1.0	31.8
CSCC[C@H](NC(=O)[C@H](CCCNC(=N)N)NC(=O)[C@H](Cc1c[nH]c2ccccc12)NC(=O)[C@H](CCC(N)=O)NC(=O)[C@H](Cc1c[nH]c2ccccc12)NC(=O)[C@H](CCCNC(=N)N)NC(=O)[C@H](CCCNC(=N)N)NC(=O)[C@H](CS)NC(=O)[C@H](CCCCN)NC(=O)[C@@H](N)Cc1ccccc1)C(=O)N[C@@H](CCCCN)C(=O)N[C@@H](CCCCN)C(=O)N[C@@H](CC(C)C)C(=O)NCC(=O)N[C@@H](C)C(N)=O [LfcinB (17–31), reference compound]						0.2		0.6
